The values below come from US20230192819A1 (TWIST BIOSCIENCE, published 2023).

B1: Antibody 1-15 (Fc fusion)
chain: EVQLVESGGGLVQPGGSLRLSCAASGGIFSDMFMGWFRQAPGKEREFVATIDWSGDTAFYADSVKGRFTISADNSKNTAYLQMNSLKPEDTAVYYCAVDLSGDAVYDWGQGTLVTVSS
B2: Antibody 1-7 (Fc fusion)
chain: EVQLVESGGGLVQPGGSLRLSCAASGGTFSSIGMGWFRQAPGKEREFVAAISWDGGATAYADSVKGRFTISADNSKNTVYLQMNSLKPEDTAVYYCAKEDVGKPFDWGQGTLVTVSS
B3: Antibody 1-10 (Fc fusion)
chain: B2 chain with G16S, V79A
B4: Antibody 1-1 (Fc fusion)
chain: EVQLVESGGGLVQPGGSLRLSCAASGSIGSINAMGWFRQAPGKEREWVAGISNGGTTNYADSVKGRFTISADNSKNTAYLQMNSLKPEDTAVYYCAADGVPEYSDYASGPVWGQGTLVTVSS
B5: Antibody 1-8 (Fc fusion)
chain: EVQLVESGGGLVQPGGSLRLSCAASGRTLSRYTMGWFRQAPGKEREFVASITSGGTTNYADSVKGRFTISADNSKNTAYLQMNSLKPEDTAVYYCAKEDVGKPFDWGQGTLVTVSS

Changes are numbered by the printed parent chain.

The target in one test is South Africa Variant 501.V2 (SARS-CoV-2).
Consider B1, for which the IC50 was found to be 0.213 nM. This lies in the sub-nanomolar range.
As to B2, inhibition was half-maximal at 1.5 nM (IC50).
For B3, the midpoint of inhibition, the IC50, lay at 1.75 nM.
For B4, the half-inhibitory concentration (IC50) turned out to be 73.3 nM.
Molecule B5 registered an IC50 of 4.95 nM.

The target of a further test is UK Variant B.1.1.7 (SARS-CoV-2).
B1: the IC50 came out at 1.23 nM.
Consider B2, for which the IC50 came to 2.01 nM.
Molecule B3 gave a half-maximal inhibitory concentration (IC50) of 0.356 nM. Compared with the last molecule, the IC50 is about 5.6-fold lower.
Turning to B4, half-maximal inhibition (IC50) was put at 34 nM. Against the preceding molecule, the IC50 is about 96-fold higher.
Still for that read-out and setting: for B5 the value was 62.3 nM.
